PubChem BioAssay AID504761 | Drosophila RNAi Screening Center – 2011
Aim: 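Genome-wide fly cell screen for genes dengue virus requires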 (primary screen). System: D.Mel-2 cells from Drosophila. Knock-down reagent: long dsRNA against Drosophila genes. Challenge: infection with dengue virus type 2; dose and infection time not stated. Read-out: 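Per well on two replicate plates, imaging gave the percent of cells positive for viral envelope protein, ranked by infection, and a nuclear count of cells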. Reading the numbers: infection score: higher = more virus-infected cells; cell count: higher = more cells in the well. Call rule: 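Very low infection ranking in both replicate wells (chance probability at most 0.065), then a retest showing infection dropped 1.5-fold or more at p below 0.05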. Meaning of the calls: active = confirmed: knock-down lowers infection; inactive = not picked or not confirmed.
In all, the deposit lists about 22,000 reagents; below is a random part of those that have a named target and a result. Over the whole deposit, 116 (0.52%) are marked active. 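Calls depend on retest data that are not deposited; infection was ranked per plate without normalising between plates; the unit of the infection score is not given.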 Raw values vary from plate to plate and are shown uncorrected. A number with no mark means an inactive call. Names joined by + are all predicted targets of the reagent. Not all columns of the deposit are shown. Not stated in the record: the amount of reagent, the time to read-out.

Against CG14950 (retired record) [DRSC08409] the deposit lists infection score, replicate 1 = 1.24; cell count, replicate 1 = 6066. Depletion of JIL-1 [DRSC11200] came out at: infection score, replicate 1 = 6.24; cell count, replicate 1 = 6554. Cul5 [DRSC14723] showed infection score, replicate 1 = 2.25; cell count, replicate 1 = 6535. TotZ [DRSC13450] gave infection score, replicate 1 = 4.08; cell count, replicate 1 = 6079. CG1136 [DRSC08184] scored infection score, replicate 1 = 17.8; cell count, replicate 1 = 4413. CG6709 + Hez [DRSC10165] showed infection score, replicate 1 = 4.83; cell count, replicate 1 = 6288.

Against CG6709 + Hez [DRSC10698] the deposit lists infection score, replicate 1 = 19.5; cell count, replicate 1 = 6032. Knock-down of CG7025 [DRSC03002] came out at: infection score, replicate 1 = 3.83; cell count, replicate 1 = 6190. With knock-down of Sps1 [DRSC07549] the results were infection score, replicate 1 = 20.3; cell count, replicate 1 = 4503. Depletion of slo [DRSC17057] came out at: infection score, replicate 1 = 2.13; cell count, replicate 1 = 6622. Silencing of nis [DRSC00290] gave: infection score, replicate 1 = 2.23; cell count, replicate 1 = 6289. nec [DRSC06769] showed infection score, replicate 1 = 2.5; cell count, replicate 1 = 6718.

Silencing of CG4783 [DRSC15644] gave: infection score, replicate 1 = 3.69; cell count, replicate 1 = 6685. With knock-down of CG9072 [DRSC20147], the record shows infection score, replicate 1 = 8.11; cell count, replicate 1 = 6483. Usp10 [DRSC08282] scored infection score, replicate 1 = 4.81; cell count, replicate 1 = 6383. After knock-down of Usp10 [DRSC08373], the screen gave infection score, replicate 1 = 3.18; cell count, replicate 1 = 6508. shtd [DRSC20166] scored infection score, replicate 1 = 3.69; cell count, replicate 1 = 4309. Knock-down of shtd [DRSC27760] came out at: infection score, replicate 1 = 5.24; cell count, replicate 1 = 6054.

With knock-down of Cyp9b1 [DRSC07389], the record shows infection score, replicate 1 = 2.12; cell count, replicate 1 = 5984. For Cyp9b1 [DRSC24745] the deposit lists infection score, replicate 1 = 0.75; cell count, replicate 1 = 6426. Depletion of antr [DRSC22392] came out at: infection score, replicate 1 = 1.12; cell count, replicate 1 = 6072.
